Measured values published in the NIST ThermoML archive (doi:10.1021/acs.jced.5b00343).

Experiment: xn = mol fraction of the nth substance listed
Settings: 101 kPa, Liquid; for speed of sound: Frequency=1.5 MHz, Sing-around technique in a fixed-path interferometer; for mass density: Vibrating tube method

CCCCOP(=O)(OCCCC)OCCCC [tributyl phosphate] + CCCCO
Settings	mass density, 303.15 K [kg/m3]	mass density, 308.15 K [kg/m3]	mass density, 313.15 K [kg/m3]	mass density, 318.15 K [kg/m3]	mass density, 323.15 K [kg/m3]	speed of sound, 303.15 K [m/s]	speed of sound, 308.15 K [m/s]	speed of sound, 313.15 K [m/s]	speed of sound, 318.15 K [m/s]	speed of sound, 323.15 K [m/s]
x1 = 0.05	823.73	819.76	815.77	811.74	807.68	1223	1206.5	1189.6	1172.9	1156.8
x1 = 0.1002	841.91	837.88	833.82	829.73	825.61	1223.3	1206.7	1189.8	1173.1	1156.9
x1 = 0.1503	857.35	853.27	849.17	845.04	840.88	1223.6	1206.9	1189.9	1173.2	1157
x1 = 0.202	871.07	866.94	862.78	858.61	854.41	1223.8	1207.1	1190.1	1173.3	1157.1
x1 = 0.2502	882.23	878.06	873.88	869.68	865.45	1224.3	1207.5	1190.4	1173.6	1157.4
x1 = 0.3006	892.53	888.34	884.13	879.91	875.67	1225.3	1208.5	1191.5	1174.6	1158.2
x1 = 0.3502	901.62	897.41	893.19	888.95	884.7	1226.4	1209.6	1192.6	1175.6	1159.4
x1 = 0.4	909.79	905.56	901.34	897.08	892.83	1227.6	1210.8	1193.8	1177	1160.7
x1 = 0.4502	917.29	913.05	908.81	904.55	900.29	1229	1212.2	1195.2	1178.4	1162.2
x1 = 0.5002	924.06	919.82	915.56	911.3	907.03	1230.6	1213.7	1196.7	1180	1163.8
x1 = 0.5506	930.31	926.07	921.81	917.55	913.28	1232.3	1215.4	1198.5	1181.8	1165.5
x1 = 0.6005	935.99	931.73	927.47	923.2	918.93	1234	1217.1	1200.3	1183.5	1167.4
x1 = 0.6502	941.16	936.9	932.63	928.36	924.09	1235.7	1218.9	1202	1185.4	1169.2
x1 = 0.7002	945.95	941.68	937.41	933.13	928.85	1237.3	1220.5	1203.6	1187	1170.9
x1 = 0.7493	950.33	946.06	941.78	937.49	933.2	1238.9	1222	1205.2	1188.6	1172.5
x1 = 0.8001	954.47	950.2	945.93	941.65	937.36	1240.4	1223.5	1206.8	1190.2	1174.2
x1 = 0.8507	958.35	954.07	949.79	945.5	941.22	1241.9	1225.1	1208.3	1191.7	1175.7
x1 = 0.9009	961.93	957.64	953.36	949.06	944.78	1243.5	1226.6	1210	1193.4	1177.4
x1 = 0.9504	965.28	960.99	956.69	952.39	948.1	1245.1	1228.3	1211.6	1195.1	1179.2
